In PubChem BioAssay AID1822 (The Scripps Research Institute Molecular Screening Center, 2009):
Where “and” joins values, the source holds several entries; their conditions need not be identical. Identical values can stand only once. This is a selection; strong and weak results do not stand in their true shares. Calls of active or inactive are those of the source.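 Rule for the calls: active = inhibition above the campaign mean inhibition over all tested compounds plus 3 SD (cut at about 28% in these data); inactive = the rest.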

The compounds below were run on M18 aspartyl aminopeptidase (Plasmodium falciparum 3D7) (assay: PfM18AAP inhibitors, malaria aminopeptidase, primary screen, biochemical, QFRET, recombinant enzyme (AID 1822;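 note: 0% = plate median of test compound wells and 100% = 2 mM ZnCl2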)). Details: H-Glu-NHMec fluorogenic cleavage, at 7.35 µM, stronger effect = higher value.
In the case of O=C(NC1CCS(=O)(=O)C1)NP(=S)(Oc1ccccc1)Oc1ccccc1 (stereo not given), the inhibition is reported as inactive: 2.22%.
CCNC(=S)/N=C(\N)N[N+](=O)[O-] was tested, and the inhibition was inactive: 3.27%.
In the case of c1ccc(-c2nn[nH]n2)c(-c2nn[nH]n2)c1, the inhibition is reported as inactive: 8.74%.
In the case of CCOC(=O)NC(Sc1ccccc1)C(Cl)(Cl)Cl (stereo not given), the inhibition is reported as inactive: -7.64%.
For Cc1ccc(NP(=O)(Oc2cccc(C)c2)Oc2cccc(C)c2)nc1, the inhibition was inactive: -8.66%.
For Cc1ccccc1OP(=O)(Nc1ccccn1)Oc1ccccc1C, the inhibition was inactive: 1.8%.
With CN(C)C(=O)Oc1noc2ccccc12 the inhibition was inactive: 2.21%.
O=c1c2cc([N+](=O)[O-])ccc2[nH]c2c([N+](=O)[O-])cc([N+](=O)[O-])cc12 was tested, and the inhibition was inactive: 0.51%.
With COC(=O)c1cc2c(s1)N=C(c1ccccc1)N(C)P2(=O)N1CCOCC1 (stereo not given) the inhibition was inactive: 5.33%.
In the case of Cc1ccc(OP(=O)(Nc2ccccn2)Oc2ccc(C)cc2)cc1, the inhibition is reported as inactive: -9.05%.
CC(=O)NC(SC(=S)N(CC(C)C)CC(C)C)C(Cl)(Cl)Cl (stereo not given) was tested, and the inhibition was inactive: 14.2%.
With O=C(OC1CN2CCC1CC2)c1ccccc1 (stereo not given) the inhibition was inactive: 3.15%.
CCC(=O)N1C2C3N(C(=O)CC)C1C1N(C(=O)CC)C(C(N1C(=O)CC)N3C(=O)CC)N2C(=O)CC was tested, and the inhibition was inactive: -1.15%.
For CC(C)(C)C(=O)NC(Sc1ccccc1)C(Cl)(Cl)Cl (stereo not given), the inhibition was inactive: -8.86%.
With O=P1(Nc2nc3ccc(Cl)cc3s2)COc2ccccc2O1 (stereo not given) the inhibition was inactive: -8.8%.
With CCOc1ccc(C2=NCC(CBr)S2)cc1 (stereo not given) the inhibition was inactive: -4.84%.
With CC(=O)Nc1ccc([As](=O)(O)O)c(O)c1 the inhibition was inactive: -11.8%.
CC(=O)Nc1ccc(Oc2c([N+](=O)[O-])cc([N+](=O)[O-])cc2[N+](=O)[O-])cc1 was tested, and the inhibition was inactive: 1.92%.
For CC(=O)c1ccc(N2CC2c2ccncc2)cc1 (stereo not given), the inhibition was inactive: -7.18%.
For c1nnnn1CCn1cnnn1, the inhibition was inactive: 0.12%.
With O=P(Nc1nccs1)(c1ccccc1)c1ccccc1 the inhibition was inactive: -7.69%.
CC(C)C(=O)NC(Sc1ccccc1)C(Cl)(Cl)Cl (stereo not given) was tested, and the inhibition was inactive: -1.71%.
For O=P(Nc1nc2ccccc2s1)(c1ccccc1)c1ccccc1, the inhibition was inactive: 14.3%.
For CN(C)C1(CNC(=O)c2ccc(Cl)c(S(N)(=O)=O)c2)CCCCC1, the inhibition was inactive: 1.09%.
With O=P(Nc1ccccn1)(c1ccc(Br)cc1)c1ccc(Br)cc1 the inhibition was inactive: -1.57%.
Nc1ccc([As](=O)(O)c2ccc([N+](=O)[O-])cc2)cc1 was tested, and the inhibition was inactive: -9.74%.
In the case of C(Cc1nn[nH]n1)Cc1nn[nH]n1, the inhibition is reported as inactive: 5.68%.
For O=C(OC1CN2CCC1CC2)c1cccc(Cl)c1 (stereo not given), the inhibition was inactive: -0.88%.
O=[N+]([O-])c1ncn(CCn2cnc([N+](=O)[O-])n2)n1 was tested, and the inhibition was inactive: 2.8%.
CC(=O)NC(SC(=S)N(C)C)C(Cl)(Cl)Cl (stereo not given) was tested, and the inhibition was inactive: 3.61%.
In the case of O=[N+]([O-])c1ccc(O)c(/C=N/Nc2ccc([N+](=O)[O-])cc2[N+](=O)[O-])c1, the inhibition is reported as inactive: -2.01%.
With O=[As](O)(c1ccccc1)c1ccc(O)cc1 the inhibition was inactive: -7.31%.
O=C(Nc1cc([As](=O)(O)O)ccc1O)c1ccccc1 was tested, and the inhibition was active: 33.2%.
O=[N+]([O-])c1cccc(NC2=NCC(CBr)S2)c1 (stereo not given) was tested, and the inhibition was inactive: 6.35%.
In the case of O=C(O)CNc1ccc([As](=O)(O)O)cc1, the inhibition is reported as inactive: -3.15%.
With CC(C)(C)C(=O)NC(Sc1ccncn1)C(Cl)(Cl)Cl (stereo not given) the inhibition was inactive: -7.31%.
In the case of O=[N+]([O-])c1ncn(CCn2ncnc2[N+](=O)[O-])n1, the inhibition is reported as inactive: -2.62%.
CC(=O)N1C2C3N(C(C)=O)C1C1N(C(C)=O)C(C(N1C(C)=O)N3C(C)=O)N2C(C)=O was tested, and the inhibition was inactive: -12.3%.
With O=[N+]([O-])c1cccc2n[nH]nc12 the inhibition was inactive: 4.05%.
In the case of Cc1ccc(NP(=O)(Oc2ccccc2)Oc2ccccc2)nc1, the inhibition is reported as inactive: -17.5%.
With O=[N+]([O-])c1cc([N+](=O)[O-])c(CCNc2ccccc2)c([N+](=O)[O-])c1 the inhibition was inactive: 17.7%.
In the case of CCc1nc2c(n1)c1c(non1O)c1c2no[n+]1[O-], the inhibition is reported as inactive: 9.23%.
With COc1ccc(C2=NCC(CBr)S2)cc1 (stereo not given) the inhibition was inactive: -0.67%.
In the case of CC(C)=N/N=C(\N)N[N+](=O)[O-], the inhibition is reported as active: 38%.
With CN(C)C(=O)OCCc1n(C)cc[n+]1C the inhibition was inactive: -1.51%.
CC1CCN(C(=O)Oc2c(Cl)cc(Cl)c3cccnc23)CC1 was tested, and the inhibition was inactive: 28%.
With Nc1ccc([As](=O)(O)c2ccc(N)cc2)cc1 the inhibition was inactive: -1.14%.
With C[N+]1=C2C=CC=CC=C2SC12C([N+](=O)[O-])=CC([N+](=O)[O-])=C[C-]2[N+](=O)[O-] (stereo not given) the inhibition was active: 31%.
With CCN(/C(=N/P(=O)(N1CCOCC1)N1CCOCC1)N1CCOCC1)c1ccc(OC)cc1 the inhibition was inactive: -2.47%.
With COc1ccccc1OP(=O)(Nc1ccc(C)cn1)Oc1ccccc1OC the inhibition was inactive: 6.25%.
With Cc1ccc(OP(=O)(Nc2nccs2)Oc2ccc(C)cc2)cc1 the inhibition was inactive: -0.24%.
With Clc1ccc(Cl)c(NC2=NCC(CBr)S2)c1 (stereo not given) the inhibition was inactive: 3.67%.
For CN1CCCC(OC(=O)C(c2ccccc2)c2ccccc2)C1 (stereo not given), the inhibition was inactive: -1.51%.
NC(=O)c1cc([N+](=O)[O-])cc([N+](=O)[O-])c1N was tested, and the inhibition was inactive: -14.4%.
For Cc1ccc(N/C(=N/P(=O)(N2CCOCC2)N2CCOCC2)N2CCOCC2)cc1, the inhibition was inactive: -1.39%.
CC(C)CC(=O)NC(Sc1ccc(Cl)cc1)C(Cl)(Cl)Cl (stereo not given) was tested, and the inhibition was inactive: -7.37%.
Nc1cc(N)c2nonc2c1[N+](=O)[O-] was tested, and the inhibition was inactive: 5.62%.
For Oc1ccccc1CNc1ccccn1, the inhibition was inactive: -3.13%.
With Cc1c2non([O-])c-2c(C)[n+](=O)[n+]1[O-] the inhibition was active: 55.1%.
For O=C(NC(Sc1ccncn1)C(Cl)(Cl)Cl)c1ccccc1 (stereo not given), the inhibition was inactive: 9.27%.
For CCOP(=O)(Nc1ccccc1)OCC, the inhibition was inactive: -0.56% and inactive: 0.11%.
In the case of Cc1cc(SC(NC(=O)c2ccc(F)cc2)C(Cl)(Cl)Cl)ncn1 (stereo not given), the inhibition is reported as inactive: 16%.
For Cc1ccc(NP(=O)(Oc2ccccc2F)Oc2ccccc2F)nc1, the inhibition was inactive: -2.53%.
With O=C(O)c1ccccc1[As](=O)(O)O the inhibition was inactive: -4.21%.
With CC(=O)Nc1ccc([As](=O)(O)O)cc1 the inhibition was inactive: 2.05%.
For O=P(Nc1nc2ccc(Cl)cc2s1)(c1ccccc1)c1ccccc1, the inhibition was inactive: -1.15%.
For CCN(N=Nc1nonc1N)c1nonc1N, the inhibition was inactive: -2.87%.
In the case of Nc1cccc2ccc([As](=O)(O)O)cc12, the inhibition is reported as inactive: 12.5%.
O=[N+]([O-])c1cc([N+](=O)[O-])c(CCN2CCOCC2)c([N+](=O)[O-])c1 was tested, and the inhibition was inactive: 16.4%.
For Cc1ccc2nc3c(c(C)c2c1)CC(C(Cl)Cl)S3 (stereo not given), the inhibition was inactive: -9.28%.
For Cc1ccc(OP(=O)(Nc2ccc([N+](=O)[O-])cn2)Oc2ccc(C)cc2)cc1, the inhibition was inactive: -3.34%.
For C[As](=O)(O)c1cccc(C(=O)O)c1, the inhibition was inactive: -7.99%.
With O=[As](O)(c1ccc(O)cc1)c1ccccc1O the inhibition was inactive: 9.58%.
CCN(CC)C(=S)SC(NC=O)C(Cl)(Cl)Cl (stereo not given) was tested, and the inhibition was inactive: -1.06%.
With CC(C)NC(=O)NP(=O)(Oc1ccccc1)Oc1ccccc1 the inhibition was inactive: 7.17%.
O=[N+]([O-])c1cc([N+](=O)[O-])c(-c2ccn[nH]2)s1 was tested, and the inhibition was inactive: 16.3%.
With CC(C)c1ccc(OP(=O)(Nc2ccccn2)Oc2ccccc2F)cc1 (stereo not given) the inhibition was inactive: 3.79%.
In the case of ClCCSc1nnc(-c2cccnc2)o1, the inhibition is reported as inactive: 2.59%.
For COc1ccc2nc(NP(=O)(c3ccccc3)c3ccccc3)sc2c1, the inhibition was inactive: -9.1%.
With COc1cc(I)ccc1[As](=O)(O)O the inhibition was inactive: -3.16%.
O=C(OC1CN2CCC1CC2)C12CC3CC(CC(C3)C1)C2 (stereo not given) was tested, and the inhibition was inactive: -20.8%.
In the case of Cc1cc(=O)[nH]c(N[N+](=O)[O-])n1, the inhibition is reported as inactive: -1.64%.
With Cc1c2c(nc3ccccc13)SC(C(Cl)Cl)C2 (stereo not given) the inhibition was inactive: 4.8%.
For COc1ccc(N/C(=N/P(=O)(N2CCOCC2)N2CCOCC2)N2CCOCC2)cc1, the inhibition was inactive: 5.5%.
In the case of O=C(COc1ccccc1)OC1CN2CCC1CC2 (stereo not given), the inhibition is reported as inactive: 2.64%.
With O=C(Nc1ccncc1[N+](=O)[O-])c1ccc([N+](=O)[O-])cc1[N+](=O)[O-] the inhibition was inactive: -0.04%.
For COP1(=S)c2c(C)nn(CCC#N)c2N=C(c2ccc(F)cc2)N1C (stereo not given), the inhibition was inactive: -0.81%.
With CCC(C)N(CC(C)C)C(=S)SC(NC(C)=O)C(Cl)(Cl)Cl (stereo not given) the inhibition was inactive: -10.7%.
With CCOC(=O)c1ccc(NC(=O)C(C)(CCl)SC)cc1 (stereo not given) the inhibition was inactive: 2.21%.
In the case of O=C(OC1CN2CCC1CC2)c1cccc([N+](=O)[O-])c1 (stereo not given), the inhibition is reported as inactive: -8.07%.
With CCCCOc1ccc(C(=O)NCC2(N3CCCCC3)CCCCC2)cc1OC the inhibition was inactive: 0.69%.
In the case of Cc1cc(SC(NC(=O)c2ccccc2)C(Cl)(Cl)Cl)nc(C(C)C)n1 (stereo not given), the inhibition is reported as inactive: 11.9%.
CCOC(=O)Nc1ccc([As](=O)(O)O)c(O)c1 was tested, and the inhibition was inactive: 0.85%.
With O=[N+]([O-])c1ccc(Nc2ccc(Oc3ccc([N+](=O)[O-])cc3[N+](=O)[O-])cc2)c([N+](=O)[O-])c1 the inhibition was inactive: -0.81%.
In the case of Cc1cc(SC(NC=O)C(Cl)(Cl)Cl)ncn1 (stereo not given), the inhibition is reported as inactive: 24.6%.
In the case of O=P(Nc1ccccn1)(c1cccc2ccccc12)c1cccc2ccccc12, the inhibition is reported as inactive: -0.8%.
CCOC(=O)Nc1cccc([As](=O)(O)O)c1 was tested, and the inhibition was inactive: -8.29%.
O=C(/C=C/c1ccccc1)OC1CN2CCC1CC2 (stereo not given) was tested, and the inhibition was inactive: -11.8%.
For CN(C)C1(CNC(=O)c2ccc(S(C)(=O)=O)cc2)CCCCC1, the inhibition was inactive: -11.3%.
For Cc1nn(-c2ccccc2)c2c1P(=O)(N1CCOCC1)N(C)C(c1ccccc1)=N2 (stereo not given), the inhibition was inactive: 7.91%.
